Experimental findings from patent publication US20100029568A1, “TIGHTER-BINDING C-PEPTIDE INHIBITORS OF HIV-1 ENTRY” (priority 2007, published 2010) are described below.

Common to all, as to format: cell-based
Experiment [1] deals with HIV-1 pseudotyped with V549E mutant Env (Res1, V38E) from strain HXB2.
For experiment [2], the system named is HIV-1 pseudotyped with Res 2 Env (HR1 mutant), HXB2. Description: Viral infectivity assay, Res 2 Env of Table 1 (HR1 mutant). The conditions noted are these: HOS-CD4-Les cells, read-out: IC50 (±SEM), Res 2 Env (HR1 mutant).
Experiment [3] deals with HIV-1 pseudotyped with Res 3 Env (HR2 mutant, N637K), HXB2.
The subject of experiment [4] is HIV-1 Res 2 (L33S). Conditions: Table 2.

Like-named read-outs stand apart in the source and are kept apart here.

As to `CC[C@H](C)[C@H](NC(=O)[C@H](CC(C)C)NC(=O)[C@H](CO)NC(=O)[C@H](Cc1c[nH]cn1)NC(=O)[C@@H](NC(=O)[C@H](CC(C)C)NC(=O)[C@H](CO)NC(=O)[C@@H](NC(=O)[C@H](Cc1ccc(O)cc1)NC(=O)[C@H](CCCCN)NC(=O)[C@H](CC(N)=O)NC(=O)[C@@H](NC(=O)[C@H](CCC(=O)O)NC(=O)[C@H](CCCNC(=N)N)NC(=O)[C@H](CC(=O)O)NC(=O)[C@H](Cc1c[nH]c2ccccc12)NC(=O)[C@H](CCC(=O)O)NC(=O)[C@H](CCSC)NC(=O)[C@H](Cc1c[nH]c2ccccc12)NC(=O)[C@@H](NC(=O)[C@@H](NC(=O)[C@H](Cc1c[nH]cn1)NC(=O)CNC(=O)CN)[C@@H](C)O)[C@@H](C)O)[C@@H](C)CC)[C@@H](C)CC)[C@@H](C)CC)C(=O)N[C@@H](CCC(=O)O)C(=O)N[C@@H](CCC(=O)O)C(=O)N[C@@H](CO)C(=O)N[C@@H](CCC(N)=O)C(=O)N[C@@H](CC(N)=O)C(=O)N[C@@H](CCC(N)=O)C(=O)N[C@@H](CCC(N)=O)C(=O)N[C@@H](CCC(=O)O)C(=O)N[C@@H](CCCCN)C(=O)N[C@@H](CC(N)=O)C(=O)N[C@@H](CCC(=O)O)C(=O)N[C@@H](CCC(N)=O)C(=O)N[C@@H](CCC(=O)O)C(=O)N[C@@H](CC(C)C)C(=O)N[C@@H](CC(C)C)C(=O)NCC(=O)NCC(=O)N[C@@H](Cc1c[nH]cn1)C(=O)N[C@@H](Cc1c[nH]cn1)C(=O)N[C@@H](Cc1c[nH]cn1)C(=O)N[C@@H](Cc1c[nH]cn1)C(=O)N[C@@H](Cc1c[nH]cn1)C(=O)N[C@@H](Cc1c[nH]cn1)C(=O)O` [C37-KYI], the IC50 amounted to 4.2 ± 1 nM in experiment [1] (Table 1, HOS-CD4-Les cells, read-out: IC50 (±SEM), Res 1 Env (HR1 mutant)); 4.2 ± 1 nM in experiment [1] (Table 2, read-out: IC50, Res 1 (V38E)); 0.6 ± 0.1 nM in experiment [2]; 4.1 ± 1 nM in experiment [3] (Table 1, HOS-CD4-Les cells, read-out: IC50 (±SEM), Res 3 Env (HR2 mutant)); 4.1 ± 1 nM in experiment [3] (Table 2, read-out: IC50, Res 3 (N123K/L204I)); 1 ± 0.2 nM in experiment [4].
